Assay results: patent US20060035214
At least one result comes from cells or an extract, where the contact may be indirect. For some of these results: Protein sequences can lack the tags named with them. For some of these results: For at least one entry, the source does not settle the construct or the ends of the probe.

Chains of the proteins cited; added tags and fusions are not shown. Lines headed by an entry give the natural chain unless they say otherwise; changes in a name come on top.
UniProt P52945: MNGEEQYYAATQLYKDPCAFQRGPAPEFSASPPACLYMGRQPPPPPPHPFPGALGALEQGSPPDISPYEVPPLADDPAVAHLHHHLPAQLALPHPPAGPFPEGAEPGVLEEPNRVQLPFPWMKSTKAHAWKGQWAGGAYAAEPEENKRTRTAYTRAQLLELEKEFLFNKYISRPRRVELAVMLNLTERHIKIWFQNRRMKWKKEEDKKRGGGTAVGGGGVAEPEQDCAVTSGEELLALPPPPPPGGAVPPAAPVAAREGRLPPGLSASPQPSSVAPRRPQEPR
UniProt P39880: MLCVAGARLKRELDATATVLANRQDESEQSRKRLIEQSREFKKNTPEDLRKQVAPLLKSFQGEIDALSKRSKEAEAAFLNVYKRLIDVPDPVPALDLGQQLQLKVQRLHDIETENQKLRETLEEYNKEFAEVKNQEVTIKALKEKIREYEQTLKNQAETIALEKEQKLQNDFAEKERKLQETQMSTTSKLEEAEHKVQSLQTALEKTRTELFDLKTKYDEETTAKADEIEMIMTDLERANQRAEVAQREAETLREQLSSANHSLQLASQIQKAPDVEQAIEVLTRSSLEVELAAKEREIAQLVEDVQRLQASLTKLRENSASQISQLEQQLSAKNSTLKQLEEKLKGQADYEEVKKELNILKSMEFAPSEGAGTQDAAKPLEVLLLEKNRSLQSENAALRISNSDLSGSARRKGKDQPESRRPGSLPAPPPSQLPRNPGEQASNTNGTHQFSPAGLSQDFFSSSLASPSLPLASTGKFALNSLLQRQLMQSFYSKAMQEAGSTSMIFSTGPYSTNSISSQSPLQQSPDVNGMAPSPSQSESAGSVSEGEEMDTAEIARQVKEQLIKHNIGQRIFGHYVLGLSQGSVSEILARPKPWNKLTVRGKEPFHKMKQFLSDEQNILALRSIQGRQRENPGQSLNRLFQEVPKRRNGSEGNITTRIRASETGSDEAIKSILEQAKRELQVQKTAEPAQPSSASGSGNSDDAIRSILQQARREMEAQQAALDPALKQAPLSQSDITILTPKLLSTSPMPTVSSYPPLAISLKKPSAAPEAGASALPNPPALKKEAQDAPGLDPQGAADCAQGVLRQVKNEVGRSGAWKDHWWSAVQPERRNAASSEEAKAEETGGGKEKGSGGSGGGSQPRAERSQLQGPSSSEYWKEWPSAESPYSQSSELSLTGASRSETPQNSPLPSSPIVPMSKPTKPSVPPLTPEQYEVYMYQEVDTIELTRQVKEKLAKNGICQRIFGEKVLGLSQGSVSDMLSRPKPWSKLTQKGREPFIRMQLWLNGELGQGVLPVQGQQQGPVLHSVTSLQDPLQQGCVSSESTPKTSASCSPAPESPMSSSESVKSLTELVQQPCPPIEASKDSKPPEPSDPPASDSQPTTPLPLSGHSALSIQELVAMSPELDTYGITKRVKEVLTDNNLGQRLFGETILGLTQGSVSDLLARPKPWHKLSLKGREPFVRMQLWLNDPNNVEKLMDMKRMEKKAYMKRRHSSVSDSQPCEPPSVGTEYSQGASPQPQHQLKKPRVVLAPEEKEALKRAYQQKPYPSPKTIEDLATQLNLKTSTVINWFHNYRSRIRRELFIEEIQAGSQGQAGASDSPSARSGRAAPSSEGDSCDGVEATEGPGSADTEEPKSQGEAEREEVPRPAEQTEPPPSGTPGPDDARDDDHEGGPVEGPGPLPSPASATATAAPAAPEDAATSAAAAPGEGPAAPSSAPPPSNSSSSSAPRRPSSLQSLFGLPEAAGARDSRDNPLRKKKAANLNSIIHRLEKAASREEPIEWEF

How the values were obtained:
Assay in all cases: EMSA
PDX1 (Homo sapiens) = PDX1 (Homo sapiens) (UniProt P52945); conditions: protein in an extract, protein details: endogenous, 293 or THP-1 nuclear extract, label: radiolabel
SATB1 = molecular target: T1, SATB1 (UniProt Q01826); conditions: label: radiolabel
T1 sequence (looked up, limits assumed): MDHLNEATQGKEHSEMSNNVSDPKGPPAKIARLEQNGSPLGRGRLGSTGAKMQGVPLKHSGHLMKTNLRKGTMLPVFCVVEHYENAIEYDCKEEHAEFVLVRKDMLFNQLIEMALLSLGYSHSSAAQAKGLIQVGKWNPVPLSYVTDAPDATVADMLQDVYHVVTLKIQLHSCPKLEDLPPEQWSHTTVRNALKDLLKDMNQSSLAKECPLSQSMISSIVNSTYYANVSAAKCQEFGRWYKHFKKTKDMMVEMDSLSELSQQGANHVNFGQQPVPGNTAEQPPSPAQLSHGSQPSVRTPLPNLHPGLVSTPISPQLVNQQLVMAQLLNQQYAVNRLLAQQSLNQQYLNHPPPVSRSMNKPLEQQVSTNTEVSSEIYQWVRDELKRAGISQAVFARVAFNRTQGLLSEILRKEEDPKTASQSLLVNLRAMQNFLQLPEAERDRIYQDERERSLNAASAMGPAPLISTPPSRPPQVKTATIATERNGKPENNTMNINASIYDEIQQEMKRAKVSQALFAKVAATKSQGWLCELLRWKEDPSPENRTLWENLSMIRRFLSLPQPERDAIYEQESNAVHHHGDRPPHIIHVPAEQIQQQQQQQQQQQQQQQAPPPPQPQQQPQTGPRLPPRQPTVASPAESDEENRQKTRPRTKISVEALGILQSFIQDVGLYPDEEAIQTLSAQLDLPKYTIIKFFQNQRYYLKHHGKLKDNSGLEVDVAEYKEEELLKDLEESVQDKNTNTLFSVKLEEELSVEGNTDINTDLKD

[1] = molecular target: CDP (CUX1) (Homo sapiens) (UniProt P39880); conditions: protein in an extract, protein details: endogenous, 293 or THP-1 nuclear extract, label: radiolabel
[2] = 293 complex C1 disrupted by antibody, in THP-1 only after PMA

Measured: binding result

GGCATTGATTATTGACTAGTTATTAATAGTAATCAATTACGGGGTCATTAGTTCA (double strand) [CMV-593 to -549]
binds: PDX1 (Homo sapiens); [2] | SATB1; 293 complexes C1 and C2 disrupted by antibody, THP-1 S1 and S2 supershifted, protein in an extract, protein details: endogenous, 293 or THP-1 nuclear extract | SATB1; two complexes, likely monomer and homodimer, protein translated in vitro, protein details: pCITE-SATB1, TNT reticulocyte lysate | [1]; [2]

TAAATCAATATTGGCTATTGGCCATTGCATACGTTGTATCTATATCATAATATGTACA (double strand) [CMV-687 to -640]
binds: PDX1 (Homo sapiens); 293 C3, THP-1 M1 and M2 | SATB1; 293 C3, THP-1 M1 and M2, protein in an extract, protein details: endogenous, 293 or THP-1 nuclear extract | [1]; 293 C3, THP-1 M1 and M2

TTGAATCAATATTGGCCATTAGCCATATTATTCATTGGTTATATAGCATAAATCAATA (double strand) [CMV-735 to -688]
binds: PDX1 (Homo sapiens); 293 C1* supershift, PMA-treated THP-1 | SATB1; 293 C1* and C2*, THP-1 S1* and S2*, protein in an extract, protein details: endogenous, 293 or THP-1 nuclear extract | [1]; 293 C1*, PMA-treated THP-1
